# Results deposited as PubChem BioAssay AID1259414 (Drosophila RNAi Screening Center, 2018)
# Assay: 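Host factors increasing or decreasing Wolbachia levels in cultured fly cells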 (primary screen)
# Cell system: Drosophila JW18 cells infected with Wolbachia
# Knock-down reagent: long dsRNA against Drosophila genes, 0.25 µg dsRNA per well of a 384-well plate
# Timing: 5 days
# Challenge: cells persistently infected with Wolbachia before knock-down; no added drug
# Detection: 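Imaged fluorescence in situ signal for Wolbachia 23S rRNA per DAPI-counted host cell, given as a robust z-score within each plate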
# Reading the numbers: Wolbachia per cell robust z: higher = more Wolbachia per host cell than the plate typical
# Rule for the call: 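Hit when robust z is 1.5 or more, or -1.5 or less, in at least two of three replicates; excludes dsRNAs with several or no targets, genes not expressed in JW18 and well A1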
# The screen tested about 24,000 reagents; below is an unselected part of those that have a named target and a result. Of all reagents, about 1,210 (5%) got an active call. 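Inactive calls also include excluded dsRNAs with several or no targets, genes unexpressed in JW18, and well A1, regardless of score.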 Names joined by + are all predicted targets of the reagent.
gene,amplicon,"Wolbachia per cell robust z, rep 1","Wolbachia per cell robust z, rep 2","Wolbachia per cell robust z, rep 3",Call
SclB + SclA,DRSC22149,-1.51,-1.61,-0.65,inactive
Fum1 (Fumarase 1),DRSC18344,-0.944,1.38,0.255,inactive
Fum1 (Fumarase 1),DRSC27406,-6.28,-1.22,-0.473,inactive
Ir41a (Ionotropic receptor 41a),DRSC04730,-0.706,0.0471,-2.22,inactive
Ir41a (Ionotropic receptor 41a),DRSC04875,0.958,-0.448,0.763,inactive
Tango10 (Transport and Golgi organization 10),DRSC19807,-5.08,-0.372,-0.641,inactive
Tango10 (Transport and Golgi organization 10),DRSC26535,0.139,-1.1,0.746,inactive
PolrMT (RNA polymerase mitochondrial),DRSC00660,-0.0228,-0.522,-0.368,inactive
miple1 (midkine and pleiotrophin 1),DRSC08722,0.976,-1.16,-0.496,inactive
CR40639 (retired record),DRSC40623,0.552,0.698,-1.44,inactive
Fili (Fish-lips),DRSC04132,1.06,-1.33,-0.931,inactive
Fili (Fish-lips),DRSC04445,0.102,0.252,0.742,inactive
Sulf1 (Sulfated),DRSC16874,-0.515,-0.625,-0.52,inactive
Sulf1 (Sulfated),DRSC27279,0.126,-0.237,0.229,inactive
Use1 (Unconventional SNARE in the ER 1),DRSC10180,-3.89,-4.54,-0.474,active
Use1 (Unconventional SNARE in the ER 1),DRSC26772,0.354,2.23,-6.02,inactive
Rab1,DRSC16808,0.982,0.311,0.954,inactive
Rab1,DRSC29851,-0.0887,0.486,3.24,inactive
snRNA:U2:34ABc (small nuclear RNA U2 at 34AB c),DRSC37898,0.882,0.435,-1.96,inactive
CG33465,DRSC05587,0.231,0.0739,-0.216,inactive
Eig71Ek,DRSC11158,0.325,0.139,1.14,inactive
Papst2 (PAPS transporter 2),DRSC10924,-1.35,-2.48,-1.03,inactive
Papst2 (PAPS transporter 2),DRSC27212,-0.206,-1.02,-0.221,inactive
CG34205,DRSC04149,-0.621,-1.89,-1.45,inactive
CG34205,DRSC22823,-2.3,-2.17,-0.775,inactive
GluRIA (Glutamate receptor IA),DRSC11176,0.273,-0.484,-2.84,inactive
CG6788,DRSC20007,-0.735,-0.712,0.554,inactive
CG6788,DRSC24906,-0.133,-0.143,-0.197,inactive
List (Lithium-inducible SLC6 transporter),DRSC06520,-1.84,0.287,-2.15,inactive
Nmdar2 (NMDA receptor 2),DRSC18183,-1.4,0.0927,-1.75,inactive
Nmdar2 (NMDA receptor 2),DRSC18511,-1.56,0.754,0.966,inactive
Nmdar2 (NMDA receptor 2),DRSC18569,-3.55,0.293,-0.468,inactive
CG14861,DRSC14984,-2.02,-2.15,-0.963,inactive
Vps2 (Vacuolar protein sorting 2),DRSC14886,2.67,4.05,4.47,active
Vps2 (Vacuolar protein sorting 2),DRSC27194,1.13,0.758,1.5,inactive
TrpRS (Tryptophanyl-tRNA synthetase),DRSC14097,-0.479,-0.0253,0.809,inactive
THG (tRNA-histidine guanylyltransferase),DRSC01896,1.64,0.579,-0.0161,inactive
Prosbeta3 (Proteasome beta3 subunit),DRSC16801,2.63,1.87,0.909,active
dmrt11E (doublesex-Mab related 11E),DRSC19715,0.0366,0.737,-0.481,inactive
dmrt11E (doublesex-Mab related 11E),DRSC23784,0.3,-1.26,0.494,inactive
kraken,DRSC00824,0.457,0.417,-0.00289,inactive
kraken,DRSC28163,-1.13,1.11,-0.155,inactive
CG13806,DRSC08341,0.595,-0.48,-1.88,inactive
Mal-A8 (Maltase A8),DRSC07234,0.582,-0.946,0.485,inactive
CG14500,DRSC06471,0.358,-0.245,-2.38,inactive
CG14500,DRSC41519,1.17,0.188,0.771,inactive
CG14834,DRSC10204,0.278,0.454,0.994,inactive
CG14834,DRSC28202,-0.399,-0.694,-1.83,inactive
cal1 (chromosome alignment defect 1),DRSC15725,-0.959,0.997,0.964,inactive
CG34030,DRSC38849,-0.183,-1.17,-0.746,inactive
CG12194,DRSC00345,-0.407,0.104,0.335,inactive
CG12194,DRSC24918,-0.281,-0.278,0.144,inactive
CG15625,DRSC00460,-3.54,-6.62,-3.12,inactive
CG15625,DRSC29231,-1.61,-2.14,-0.617,inactive
CG15625,DRSC39009,0.0669,-0.0496,-8.72,inactive
Nmd3 (Nonsense-mediated mRNA 3),DRSC18687,0.531,0.374,-2.44,inactive
Nmd3 (Nonsense-mediated mRNA 3),DRSC22834,-0.992,-1.31,-0.843,inactive
CG2321,DRSC15439,0.15,1.26,0.789,inactive
CG10163,DRSC09710,1.08,0.497,0.393,inactive
Tmtc2 (Transmembrane O-mannosyltransferase targeting cadherins 2),DRSC24987,1.14,1.79,0.0878,inactive
CG31286,DRSC26727,0.62,-0.444,-0.724,inactive
CG34446,DRSC24507,-0.0422,0.0586,-0.32,inactive
CG15317,DRSC18005,-0.814,0.704,0.711,inactive
CG15317,DRSC25924,0.745,0.168,-0.398,inactive
Cirl (Calcium-independent receptor for alpha-latrotoxin),DRSC23235,0.955,-0.523,0.462,inactive
Cirl (Calcium-independent receptor for alpha-latrotoxin),DRSC28280,1.34,0.677,0.647,inactive
CG8086,DRSC03078,-2.84,0.528,0.465,inactive
CG8086,DRSC03079,0.183,-0.213,-0.715,inactive
CG8086,DRSC27677,1.13,0.489,1.2,inactive

Active calls (from the list above):
gene,amplicon,"Wolbachia per cell robust z, rep 1","Wolbachia per cell robust z, rep 2","Wolbachia per cell robust z, rep 3",Call
Use1 (Unconventional SNARE in the ER 1),DRSC10180,-3.89,-4.54,-0.474,active
Vps2 (Vacuolar protein sorting 2),DRSC14886,2.67,4.05,4.47,active
Prosbeta3 (Proteasome beta3 subunit),DRSC16801,2.63,1.87,0.909,active
